In patent US20090197910A1, “NOVEL VIRAL REPLICATION INHIBITORS” (KATHOLIEKE UNIVERSITEIT LEUVEN, priority 2006, published 2009):

Tested on: HCV Subgenomic Replicon
Assay: HCV-Huh-5-2 replicon cell assay (luciferase)
Type: cell-based, Hepatitis C virus
Conditions: Huh-5-2 cells
Procedure: Huh-5-2 cells [a cell line with a persistent HCV replicon I3891uc-ubi-neo/NS3-3′/5.1; replicon with firefly luciferase-ubiquitin-neomycin phosphotransferase fusion protein and EMCV-IRES driven NS3-5B HCV polyprotein] was cultured in RPMI medium (Gibco) supplemented with 10% fetal calf serum, 2 mM L-glutamine (Life Technologies), 1× non-essential amino acids (Life Technologies); 100 IU/ml penicillin and 100 ug/ml streptomycin and 250 ug/ml G418 (Geneticin, Life Technologies). Cells were seeded at a densitiy of 7000 cells per well in 96 well View Plate™ (Packard) in medium containing the same components as described above, except for G418. Cells were allowed to adhere and proliferate for 24 hr. At that time, culture medium was removed and serial dilutions of the test compounds were added in culture medium lacking G418. Interferon alfa 2a (500 IU) was included as a positive control. Plates were further incubated at 37° C. and 5% CO2 for 72 hours. […] Luciferase activity is measured by adding 50 μl of 1× Glo-lysis buffer (Promega) for 15 minutes followed by 50 ul of the Steady-Glo Luciferase assay reagent (Promega). Luciferase activity is measured with a luminometer and the signal in each individual well is expressed as a percentage of the untreated cultures. […] Instead the density of the culture is measured by means of the MTS method (Promega).

## CC(=O)OCC1OC(n2c(SCc3cc4cc(Br)ccc4oc3=O)nc3cc(Cl)c(Cl)cc32)C(OC(C)=O)C(OC(C)=O)C1OC(C)=O (stereo not shown) [Compound 7g, Acetic acid 3,5-diacetoxy-2-acctoxymethyl-6-[2-(6-bromo-2-oxo-2H-chromen-3-ylmethylsulfanyl)-5,6-dichloro-benzoimidazol-1-yl]-tetrahydro-pyran-4-yl ester]
  SI (selectivity index, ratio of CC50 to EC50): > 15.9
